Measurements from patent publication US10022359B2, “1,9-diazaspiro undecane compounds having multimodal activity against pain” (dated 2018).

Tested on: human σ1 receptor and human μ-opioid receptor
Assay: Human σ1 receptor and human μ-opioid receptor radioligand assays (dual binding)
Settings: read-out: μ and σ1 dual binding; combined class for Ki-μ ([3H]-DAMGO, transfected CHO-K1 membranes) and Ki-σ1 ([3H](+)-pentazocine, transfected HEK-293 membranes)

Oc1ccccc1CN1CCOCC12CCN(CCc1ccccc1)CC2
Ki: < 500 nM

Oc1ccccc1CCN1CCC2(CC1)COCCN2Cc1ccccc1
Ki: < 500 nM

Oc1cccc(CCN2CCC3(CC2)COCCN3Cc2ccccc2)c1
Ki: < 100 nM

Oc1cccc(CN2CCOCC23CCN(CCc2ccccc2)CC3)c1
Ki: < 500 nM

O=C(c1ccccc1)N1CCOCC12CCN(CCc1ccccc1)CC2
Ki: < 500 nM

c1ccc(CCN2CCC3(CC2)COCCN3Cc2cccnc2)cc1
Ki: < 500 nM

c1ccc(CN2CCOCC23CCN(CCc2cccnc2)CC3)cc1
Ki: < 500 nM

c1ccc(CCN2CCC3(CC2)COCCN3Cc2ccccn2)cc1
Ki: < 500 nM

COc1ccccc1CCN1CCC2(CC1)COCCN2Cc1ccccc1
Ki: < 500 nM

CS(=O)(=O)Nc1cccc(CN2CCOCC23CCN(CCc2ccccc2)CC3)c1
Ki: < 500 nM

c1ccc(CCN2CCC3(CC2)COCCN3CCc2ccccc2)cc1
Ki: < 500 nM

c1ccc(CCN2CCC3(CC2)COCCN3Cc2ccncc2)cc1
Ki: < 500 nM

COc1ccc(CCN2CCC3(CC2)COCCN3Cc2ccccc2)cc1
Ki: < 500 nM

c1ccc(CCN2CCC3(CC2)COCCN3Cc2ccccc2)cc1
Ki: < 100 nM

COc1cccc(CN2CCOCC23CCN(CCc2ccccc2)CC3)c1
Ki: < 500 nM

COc1cccc(CCN2CCC3(CC2)COCCN3Cc2ccccc2)c1
Ki: < 500 nM

Oc1ccc(CCN2CCC3(CC2)COCCN3Cc2ccccc2)cc1
Ki: < 100 nM
